We go through four substances from PMC9015526 (Chemmedchem, 2022).

The same purity stands for every peptide and may come from a single statement. HELM strings list residues between dots; [ac] is acetyl, [am] amide, other brackets name non-standard units.

A short description of the series: peptide synthesis. To be noted: whole synthesis, HPLC analysis; SPE-MS.
For Ac-VTNNTFTLKGG, the “final HPLC purity” value was above 90%. Consider “PEPTIDE1{V.T.N.N.T.F.T.L.K.G.G.A.P.T.K.V.T.F.G.D.[am]}$$$$V2.0”, for which the “final HPLC purity” value is recorded as above 90%. With VTRELMRELNGG/AYTRYVDN the figure was above 90%; with VVTTKIALKGG/KIVNNWLK, above 90%.
